Data taken from ChEMBL document CHEMBL3988442, “University of Dundee, Small-Polar-MMV Screening Library” (2021).

Results are given as percent effect. The record does not define 0% and 100%; most values in the screen are far below 50% and negative numbers occur (in some assays of this library far below -100). The entries come from a sample that favours strong results. A dash means the value is not listed here; it may have been measured.

A: 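Growth of Mycobacterium tuberculosis over 4 days (cholesterol / DPPC medium with tyloxapol); the read-out is not stated. Compounds at 500 µM. The record gives no direction; compounds that gave an IC50 in retests scored well above the rest, so higher reads as more growth inhibition. About 18,000 compounds were tested under these conditions; 5% (about 900) showed 50% or more at least once.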
B: 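Whole-cell growth test on Mycobacterium tuberculosis, read after 3 days in glucose-containing 7H9 medium; the read-out is not stated. Concentration: 500 µM. The record gives no direction; compounds that gave an IC50 in retests scored well above the rest, so higher reads as more growth inhibition. Size under these conditions: about 18,000 compounds, about 1,400 of them at 50% or above in at least one test.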

Compound,A,B
c1cc(C2CNCCO2)nc(N2CCCC2)n1 (stereo unspecified),-,24.42
CCN(CCn1cccn1)C1CCN(C(C)=O)CC1,-,-0.05639
N#CCCn1ccc(=O)[nH]c1=O,-,6.092
O=C(O)C1CN(Cc2ccc(CN3CCCCC3)s2)C1,-,-2.735
CN(C)C(CNC(=O)CN1CCCC1=O)c1ccco1 (stereo unspecified),-,7.436
CNCc1ccc(C)cn1,-,1.176
O=C(CCc1ccc(O)cc1)N[C@@H]1CCNC[C@H]1O,-3.28,-
Cc1nnnn1CCC(=O)N1CC(N2CCCCC2)C1,-10.81,-
CSc1cc(NC(=O)NCCn2ccnc2)ccn1,7.597,7.957
NCc1cc(Oc2cccc(Cl)c2)ccn1,-23.07,-20.05
O=C(CN1CCCC1)NCC1COc2ccccc2O1 (stereo unspecified),-,8.242
Cc1nnc(SCc2ccc(Cl)s2)n1CC(N)=O,37.33,53.23
CC(C)N1CCC(NCCc2ccccn2)CC1,-,-10.99
CC(O)(CNc1ncccc1F)C1CCCC1 (stereo unspecified),65.12,65.78
CC(C)(C#N)c1ccc(-c2cc(C(N)=O)ccn2)cc1,-,44.53
CC(Oc1ccc(N(C)S(C)(=O)=O)cc1)C(=O)N(C)C (stereo unspecified),-,2.018
CC(C)(C)OC(=O)CN(CCCO)Cc1cccnc1,20.43,-
Nc1nccnc1C(=O)NCc1cc(Br)cs1,52.77,89.32
NS(=O)(=O)CCC(F)(F)F,-,3.893
CC(N)c1ccc(NC(=O)C2CC2)cc1 (stereo unspecified),-,5.906
Cc1ccc(C(=O)N2CCCC(CO)C2)o1 (stereo unspecified),-7.101,-
NCc1nc(-c2ccc(F)cc2)c[nH]1,-,54.16
O=C(NC1CCN(C2CCCC2)CC1)c1cnc[nH]1,0.7842,-
NC(=O)CCCNC(=O)C1(c2ccccc2)CCC1,8.269,-
COCCC(=O)Nc1cc(OC)ccn1,-17.86,-10.65
CC(C)CCn1ccc(NC(=O)N2CCC(O)C2)n1 (stereo unspecified),-8.594,-
Cn1ncc2c(N3CCCCC3CN)ncnc21 (stereo unspecified),2.51,-
CN(CCn1cnnc1)c1ccc2ccc(F)cc2n1,72.21,69.39
COc1ccc(C(=O)NC2CCN(C)CC2)c(OC)c1,-,2.264
O=C(NC1CC(=O)N(Cc2cccc(F)c2)C1)C1CC1 (stereo unspecified),-,17.37
Nc1nnc(SCc2ccc(Cl)s2)[nH]1,61.13,52.16
CN(C)C(CN)C1CC1 (stereo unspecified),-2.638,5.846
Cc1cc2c(cc1CN)OCCO2,-,17.27
CCn1cc(C(=O)Nc2ccccc2C(N)=O)c(C)n1,-,43.09
CC(C)c1ccc(NC(=O)C2COCCN2C)cc1 (stereo unspecified),-,61.59
CN1CC(CCN)C1,-,-15.54
Cc1[nH]ncc1CNCC(O)CN1CCCCC1 (stereo unspecified),-,-12.03
CC(C)CNc1nnc(SCCS(C)(=O)=O)s1,-,31.44
OCCCc1cccc(NCc2csnn2)c1,-,34.38
CC(NS(=O)(=O)c1cccc(C#N)c1)c1ccncc1 (stereo unspecified),-,31.56
CCN1C[C@H](NC(=O)c2cnc(SC)nc2)[C@@H](OC)C1,25.78,49.66
Cc1ccc2c(c1)C(N)CO2 (stereo unspecified),-1.281,-
CCC(N)C(=O)N1CCN(c2ccncc2Cl)CC1 (stereo unspecified),-7.738,2.085
NC(=O)COc1ccc(CNCc2ccccc2)cc1,-,8.956
COc1ccsc1C(=O)Nc1nc(C)nn1C,1.045,-
CN1CCC(NC(=O)c2c(Br)cnn2C)CC1,10.24,-
COC(=O)c1cc(N2C(=O)C=CC2=O)ccc1Cl,-,0.1205
CC(=O)N1CCC(N)c2ccccc21 (stereo unspecified),-,-1.551
Cc1nc(C)c(CC(=O)NCc2snnc2C)c(=O)[nH]1,-6.067,-
Cc1cc(-c2noc(C(C)N)n2)ccc1F (stereo unspecified),57.79,57.82
CCNC(=O)c1cc(N2CCC(C(N)=O)C2)ccn1 (stereo unspecified),-,-2.445
CN1C(=O)C(N)c2cc(Br)ccc21 (stereo unspecified),-6.53,-2.39
C[C@H](c1ccc(Cl)cc1)n1c(CCN)n[nH]c1=O,9.492,51.91
COCC(C)Nc1ccc2nnc(C3CC3)n2n1 (stereo unspecified),-,-1.82
CN(C)S(=O)(=O)c1ccc(CS(=O)(=O)C2CCCC2)o1,-,0.1206
CC1CS(=O)(=O)CCN1Cc1ccc(F)c(C#N)c1 (stereo unspecified),-17.01,-
Cc1ccc(C)c(NC(=O)CN2CCNC(=O)C2)c1,0.6146,-
Cc1ccc(-c2noc([C@H](N)CCCN)n2)nn1,-,2.985
O=C(CCS(=O)(=O)c1ccccc1)Nc1ccccn1,-,-0.6823
NCC(=O)N1CCCC(CCc2ccccc2F)C1 (stereo unspecified),66.6,74.68
CC1CN(CCS(C)(=O)=O)CCN1Cc1nccn1C (stereo unspecified),-,11.11
CC(C)Cc1cc(C(=O)N2CC[C@H](CO)[C@H](O)C2)on1,-,9.002
CC(N)c1nnc2n1CCCC2 (stereo unspecified),-,6.389

For reference, 3 entries once more:

- N#CCCn1ccc(=O)[nH]c1=O | B: 6.092%
- O=C(NC1CCN(C2CCCC2)CC1)c1cnc[nH]1 | A: 0.7842%
- NCc1nc(-c2ccc(F)cc2)c[nH]1 | B: 54.16%